Compound potency records, mixed from different reports. Data source: NIAID ChemDB in PubChem.

Common to all: tests in culture; organism: Mycobacterium bovis BCG

MIC50, MIC90 and the like: level of inhibition, or share of isolates inhibited.

O=C(O)c1c[nH]c2cc(OCc3ccccc3)ccc2c1=O ; strain or isolate: Pasteur ; measure: MIC ; result: >100 µM
Fc1ccccc1Cn1cc(/C=N/Nc2nncs2)c2ccccc21 ; strain or isolate: 1173P2 ; read by: broth dilution ; conditions: 48 h ; measure: MIC100 ; result: 250 µg/mL
COC(=O)C(C)c1ccc2c(c1)[nH]c1ccc(Cl)cc12 ; read by: resazurin / visual reading / absorbance ; measure: MIC99 ; result: 31.3 µg/mL
CCn1cc(/C=N/Nc2nncs2)c2ccccc21 ; strain or isolate: 1173P2 ; read by: broth dilution ; conditions: 48 h ; measure: MIC100 ; result: 250 µg/mL
CN(C)c1ccc(O)c2c1C[C@H]1C[C@H]3[C@H](N(C)C)C(=O)C(C(N)=O)=C(O)[C@@]3(O)C(=O)C1=C2O ; strain or isolate: Pasteur ; measure: MIC ; result: 1.56 µM
O=C(O)Cc1ccc2[nH]c3ccc(F)cc3c2c1 ; read by: resazurin / visual reading / absorbance ; measure: MIC99 ; result: 125 µg/mL
NNC(=S)N/N=C/c1cn(Cc2ccccc2)c2ccccc12 ; strain or isolate: 1173P2 ; read by: broth dilution ; conditions: 48 h ; measure: MIC100 ; result: >500 µg/mL
C#CCO ; strain or isolate: 1173P2 ; read by: resazurin ; conditions: 24 h ; measure: MIC ; result: 125 µg/mL
CC(=O)O[C@@H]1CC(=O)O[C@H](C)C[C@@H]2O[C@@H]2/C=C/C(=O)[C@H](C)C[C@H](CC=O)[C@H](OC2OC(C)C(OC3CC(C)(O)C(OC(=O)CC(C)C)C(C)O3)C(N(C)C)C2O)[C@H]1O ; strain or isolate: Pasteur ; measure: MIC ; result: 12.5 µM
CC(=O)OC(C)=O ; strain or isolate: 1173P2 ; read by: resazurin ; conditions: 24 h ; measure: MIC ; result: 250 µg/mL
NNC(=S)N/N=C/c1cn(CC2CC2)c2ccccc12 ; strain or isolate: 1173P2 ; read by: broth dilution ; conditions: 48 h ; measure: MIC100 ; result: >500 µg/mL
O=C(O)Cc1ccc2c(c1)[nH]c1ccc(Cl)cc12 ; read by: resazurin / visual reading / absorbance ; measure: MIC99 ; result: 250 µg/mL
Cn1cc(/C=N/NC(=S)NN)c2ccccc21 ; strain or isolate: 1173P2 ; read by: broth dilution ; conditions: 24 h ; measure: MIC100 ; result: >500 µg/mL
CC(C)CC(=O)OC(=O)CC(C)C ; strain or isolate: 1173P2 ; read by: resazurin ; conditions: 48 h ; measure: MIC ; result: 250 µg/mL
COC(=O)[C@@H]1[C@H](O)[C@H](C)C(O)[C@H](C)/C=C\C=C(/C)C(=O)Nc2c(C)c(OC(C)=O)c3c(c2O)C(=O)C(C)=C2OCOC(=C23)/C(C)=C/[C@@](C)(O)[C@H](O)[C@@H](C)[C@H]1OC(C)=O ; strain or isolate: Pasteur ; measure: MIC ; result: 25 µM
Cc1ccc(-c2ccc3[nH]c4cc(C(C)C(=O)O)ccc4c3c2)cc1 ; read by: resazurin / visual reading / absorbance ; measure: MIC99 ; result: 31.3 µg/mL
NNC(=S)N/N=C/c1cn(CC2CCCCC2)c2ccccc12 ; strain or isolate: 1173P2 ; read by: broth dilution ; conditions: 24 h ; measure: MIC100 ; result: >500 µg/mL
CC(C(=O)O)c1ccc2c(c1)[nH]c1ccc(Cl)cc12 ; read by: resazurin / visual reading / absorbance ; measure: MIC99 ; result: 125 µg/mL
C#CC(CCCCC)OC(C)=O ; strain or isolate: 1173P2 ; read by: resazurin ; conditions: 48 h ; measure: MIC ; result: 125 µg/mL
NNC(=S)N/N=C/c1cn(Cc2ccc(Cl)cc2)c2ccccc12 ; strain or isolate: 1173P2 ; read by: broth dilution ; conditions: 24 h ; measure: MIC100 ; result: >500 µg/mL
COc1ccc2[nH]c3ccc(CC(=O)O)cc3c2c1 ; read by: resazurin / visual reading / absorbance ; measure: MIC99 ; result: 250 µg/mL

Lines come from different laboratories, so protocols vary.